Compound potency records, mixed from different reports. Data source: NIAID ChemDB in PubChem.

Shared fields: whole-cell or culture tests; organism: HIV-1

Blank or dashed fields: not listed here. ECn is the concentration giving n% inhibition of infection, replication or growth. a–b is a range or a potency band. Conditions beyond the fields shown may differ between rows.

compound,strain or isolate,method,cells,endpoint,changes,result
Cc1cc(C)c(Oc2nc(Nc3ccc(C#N)cc3)nc3sccc23)c(C)c1,Y181C,luciferase,HeLa,EC50,-,0.01–0.1 µM
CCCCCCCCCCCCCCCCCCOCCOP(=O)(O)CO[C@H](CO)Cn1cnc2c(N)ncnc21,LAI,p24 / ELISA,MT-2,EC50,-,0.0001 µM
CC(C)(C)CS(=O)(=O)N(CC1CCCC1)C[C@@H](O)CN(CCc1ccccc1)C(=O)c1ccccc1,IIIB,p24,CEM,EC90,-,1 µM
Cc1cc(C#N)cc(C)c1Nc1nc(Nc2ccc(C#N)cc2)nc2c(C)csc12,L1001-K103N,luciferase,HeLa,EC50,-,>0.1 µM
CN(Cc1nc2ccccc2[nH]1)Cc1ncccc1CCCNC(=O)N(C)C,IIIB,syncytia,C8166,EC50,-,9.386 µM
C=CCOc1cccc(Cc2nc(N(C)C)[nH]c(=O)c2CC)c1,RT-K103N Y181C Mutant NNRTI-resistant,cytopathic effect / MTT,MT-4,EC50,-,>20 µM
CC(C)CN(CC(O)CC(=O)N1CSC[C@@H]1C(=O)NC(C)(C)C)S(=O)(=O)c1ccccc1,IIIB,p24,CEM,EC90,-,1 µM
CCCCCCCCCCCCCCCCCCOCCOP(=O)(O)CO[C@H](CO)Cn1ccc(N)nc1=O,LAI,p24 / ELISA,MT-2,EC50,-,0.0001 µM
COc1cc(-c2ccc(N=Nc3ccc4c(S(=O)(=O)O)cc(S(=O)(=O)O)c(N)c4c3O)c(OC)c2)ccc1N=Nc1ccc2c(S(=O)(=O)O)cc(S(=O)(=O)O)c(N)c2c1O,LAV,RT activity,CEM + CEM-SS,EC50,-,1.9 µM
CCCC#CC1(C(F)(F)F)OC(=O)Nc2ccc([N+](=O)[O-])cc21,RF,-,MT-2,EC90,-,0.00223 µM
CCN(CC)CCOc1ccc(NC(=O)COc2ccccc2C(=O)c2ccc(OC)cc2)cc1,RF,p24,C8166,EC50,-,0.318 µM
C=CCCc1cccc(Cc2c(CC)c(=O)[nH]c(=O)n2COCC)c1,RT-K103N Y181C Mutant NNRTI-resistant,cytopathic effect / MTT,MT-4,EC50,-,10 µM
O=C(COc1ccc(F)cc1C(=O)c1ccccc1)Nc1ccccc1,RF,syncytia,C8166,EC50,-,0.0401 µM
CCCCCCCCCCCCCCCCCCOCCOP(=O)(O)CO[C@H](CO)Cn1cnc2c(N)nc(N)nc21,NRTI-MDR,p24 / ELISA,PBMC,EC50,K65R,0.074 µM
COc1cccc2ccc(-c3nnc(-c4cccc(F)c4)o3)nc12,VB59,luminescence,TZM-bl,EC50,-,>150 µM
CN(Cc1nc2ccccc2[nH]1)C1CCCc2cccnc21,IIIB,syncytia,C8166,EC50,-,2.041 µM
C=CCCc1cccc(Cc2c(CC)c(=O)[nH]c(=O)n2COCC=C)c1,RT-K103N Y181C Mutant NNRTI-resistant,cytopathic effect / MTT,MT-4,EC50,-,5 µM
COc1ccc(S(=O)(=O)N(CC(C)C)C[C@@H](O)CC(=O)N2CSCC2C(=O)NC(C)(C)C)cc1,IIIB,p24,CEM,EC90,-,1 µM
Cc1ccccc1CNC(=O)COc1ccc(Cl)cc1C(=O)c1ccccc1,RF,syncytia,C8166,EC50,-,1.27 µM
CCN(CC)C(=O)OC[C@@H]1CN(C(=O)c2ccccc2)CCN1C(=O)C(=O)c1c[nH]c2nccc(OC)c12,LAI,RT activity,PBMC,EC50,-,>125 µM
Nc1nc(NC2CC2)c2ncn([C@H]3C=C[C@@H](CO)C3)c2n1,SBH Clinical isolate,p24,PBMC,EC50,-,>0.25 µM
O=C(Cn1cnc2ccccc21)Nc1ccccn1,IIIB,luciferase,TZM-bl,EC50,-,381 µM
CCOCn1c(Cc2cccc(OCC=O)c2)c(CC)c(=O)[nH]c1=O,RT-K103N Y181C Mutant NNRTI-resistant,cytopathic effect / MTT,MT-4,EC50,-,>45 µM
COc1ccc2ccc3c(c2c1)SCC(C)NC3=O,-,p24,OM-10.1,EC50,-,3.1 µM
COC(=O)C[C@@H](OC1=C(C)C(=O)C(C)(C)C1=O)c1ccccc1,-,MTT,C8166,EC50,-,25.91 µM
O=C1c2c(O)c3n(c2CCN1Cc1ccc(F)cc1)CCN(Cc1ccc(F)cc1)C3=O,-,p24,MT-4,EC50,-,<10 µM
Cc1ccnc2c1NC(=O)c1cccnc1N2C1CC1,SF162,luciferase,TZM-bl,EC50,-,0.03375 µM
COc1ccc2c(c1)C1=C(CC2)C(=O)NCCN1Cc1ccccc1Cl,-,p24,OM-10.1,EC50,-,0.9 µM
Nc1nc2c(ncn2[C@@H]2C[C@H](O)[C@H](CO)O2)c(=O)[nH]1,-,cytopathic effect / MTT,MT-4,EC50,-,>100 µM
CC1(C)[C@@H](O[C@H]2O[C@H](C(=O)O)[C@@H](O)[C@H](O)[C@H]2O[C@@H]2O[C@H](C(=O)O)[C@@H](O)[C@H](O)[C@H]2O)CC[C@]2(C)[C@H]3C(=O)C=C4[C@@H]5C[C@@](C)(C(=O)O)CC[C@]5(C)CC[C@@]4(C)[C@]3(C)CC[C@@H]12,IIIB,plaque count,MT-4,EC50,-,<150 µM
N#C[C@]1(CO)O[C@@H](n2cnc3c(N)nc(N)nc32)C[C@@H]1O,LAI,cytopathic effect / MTT,-,EC50,-,<0.03 µM
CCOCn1c(Cc2cccc(OCC=NO)c2)c(CC)c(=O)[nH]c1=O,RT-Y181C Mutant NNRTI-resistant,cytopathic effect / MTT,MT-4,EC50,-,35 µM
COc1cccc2ccc(/C=C/C(=O)Nc3ccccc3F)nc12,VB59,luminescence,TZM-bl,EC50,-,3.35 µM
Cc1cn(CC(=O)Nc2ccccn2)c(=O)[nH]c1=O,ADA5,luciferase,TZM-bl,EC50,-,26 µM
COc1ccc2sc3c(c2c1)N(Cc1cccc([N+](=O)[O-])c1)CCNC3=O,-,p24,OM-10.1,EC50,-,<0.04 µM
CN(Cc1nc2ccccc2[nH]1)Cc1ncccc1CCCN,IIIB,syncytia,C8166,EC50,-,10.4 µM
Cc1cc(C)c(Oc2nc(Nc3ccc(C#N)cc3)nc3sc4c(c23)CCCC4)c(C)c1,L1001-K103N,luciferase,HeLa,EC50,-,>0.1 µM
CCc1cc(=O)c2ccc3c(c2o1)[C@@H](OC(=O)C12CCC(C)(C(=O)O1)C2(C)C)[C@@H](OC(=O)C12CCC(C)(C(=O)O1)C2(C)C)C(C)(C)O3,NL4-3,p24,MT-4,EC50,RT-E138K,>10 µM
O=C(Cn1ccc(=O)[nH]c1=O)Nc1ccc([N+](=O)[O-])cn1,ADA5,luciferase,TZM-bl,EC50,-,1.3 µM
CCCN(CC(=O)c1ccccc1)C[C@H](O)CN(CC1CCCC1)S(=O)(=O)c1ccc(OC)cc1,IIIB,p24,CEM,EC90,-,1 µM
CCN(CC)CCOc1ccc(NC(=O)COc2ccccc2C(=O)c2ccc(F)cc2)cc1,RF,p24,C8166,EC50,-,<0.0862 µM
O=C(CCC(=O)Nc1ccc([N+](=O)[O-])cn1)Nc1ccc([N+](=O)[O-])cn1,ADA5,luciferase,TZM-bl,EC50,-,58.33 µM
C=CCOc1cccc(Cc2[nH]c(=O)[nH]c(=O)c2CC)c1,IIIB,cytopathic effect / MTT,MT-4,EC50,-,>20 µM
Nc1ccn([C@H]2CC[C@@H](CO)O2)c(=O)n1,IIIB,cytopathic effect / XTT,CEM + CEM-SS,EC50,-,0.0015 µM
O=C(c1ccccc1)c1cc(Cl)ccc1OCC(=O)N1CCc2ccccc2C1,RF,p24,C8166,EC50,-,0.0394 µM
COc1cccc2ccc(-c3nnc(-c4cccc(C)c4)o3)nc12,VB59,luminescence,TZM-bl,EC50,-,36.93 µM
COc1ccc(S(=O)(=O)N(CC(C)C)C[C@@H](O)CCN(CC2CCCC2)S(=O)(=O)c2ccccc2)cc1,IIIB,p24,CEM,EC90,-,1 µM
CN(Cc1nc2ccccc2[nH]1)Cc1ncccc1Br,IIIB,syncytia,C8166,EC50,-,22.9 µM
COc1ccc2c(c1)C1=C(CC2)C(=O)NCCN1CC(C)C,-,p24,OM-10.1,EC50,-,0.7 µM
CCCC#CC1(C(F)(F)F)OC(=O)Nc2cccc(F)c21,RF,-,MT-2,EC90,-,0.00418 µM
COc1ccc(S(=O)(=O)N(CC2CCCC2)C(=O)C(=O)C(=O)[C@@H](Cc2ccccc2)NC(=O)O[C@H]2CCOC2)cc1,IIIB,p24,CEM,EC50,-,<1 µM
COc1cc2c(OC3OC(C)C(OC4OC(CO)C(O)C(O)C4O)C(O)C3OC(C)=O)c3c(c(-c4ccc5c(c4)OCO5)c2cc1OC)C(=O)OC3,1617-1,p24 / ELISA,PBMC,EC50,-,0.185 µM
CCCN1CCNC(=O)c2sc3ccc(OC)cc3c21,-,p24,OM-10.1,EC50,-,<0.08 µM
N#C[C@]1(CO)O[C@@H](n2cnc3c(N)ncnc32)C[C@@H]1O,HXB2,β-galactosidase,MAGI,EC50,-,0.043 µM
CC(C)(C)OC(=O)N1C2C3C4N(C(=O)OC(C)(C)C)C5C(C1C5(CO)[C@H]3c1ccccc1)[C@@H](c1ccccc1)C24CO,IIIB,cytopathic effect / MTT,MT-4,EC50,-,>0.125 µM
COc1ncc(OC)c2c(C(=O)C(=O)N3CCN(C(=O)c4ccccc4)CC3)c[nH]c12,JR-FL,p24 / ELISA,PM1,EC50,-,0.003 µM
CCN(CC)C(=O)OC[C@H]1CN(C(=O)c2ccccc2)CCN1C(=O)C(=O)c1c[nH]c2nccc(OC)c12,LAI,RT activity,PBMC,EC90,-,>125 µM
CN(Cc1ccccn1)Cc1ncccc1CCC#N,IIIB,syncytia,C8166,EC50,-,5.571 µM
CC(=O)Nc1ccc2c(c1)C(C#CCC(C)C)(C(F)(F)F)OC(=O)N2,RF,-,MT-2,EC90,-,0.5 µM
C=CCOc1cccc(Cc2c(CC)c(=O)[nH]c(=O)n2COCC)c1,IIIB,cytopathic effect / MTT,MT-4,EC50,-,0.5 µM
CC(=O)SCCOP(=O)(OCCSC(C)=O)OC[C@@H]1C=C[C@H](n2cc(C)c(=O)[nH]c2=O)O1,-,-,CEM + CEM-SS,EC50,-,0.006 µM
CCOCn1c(Cc2ccccc2)c(C(C)C)c(=O)[nH]c1=O,RT-K103N Y181C Mutant NNRTI-resistant,cytopathic effect / MTT,MT-4,EC50,-,>100 µM
Brc1cccc(N=Cc2cc3ccccc3nc2Nc2cccc(Br)c2)c1,UG070,luminescence,TZM-bl,EC50,-,>100 µM
COc1cccc(CN2CCNC(=O)C3=C2c2cc(OC)ccc2CC3)c1,-,p24,OM-10.1,EC50,-,0.11 µM

For reference, 4 entries again:

compound | strain or isolate | method | cells | endpoint | changes | result
COc1cccc2ccc(/C=C/C(=O)Nc3ccccc3F)nc12 | VB59 | luminescence | TZM-bl | EC50 | - | 3.35 µM
CC(C)(C)CS(=O)(=O)N(CC1CCCC1)C[C@@H](O)CN(CCc1ccccc1)C(=O)c1ccccc1 | IIIB | p24 | CEM | EC90 | - | 1 µM
CC(=O)Nc1ccc2c(c1)C(C#CCC(C)C)(C(F)(F)F)OC(=O)N2 | RF | - | MT-2 | EC90 | - | 0.5 µM
O=C(Cn1ccc(=O)[nH]c1=O)Nc1ccc([N+](=O)[O-])cn1 | ADA5 | luciferase | TZM-bl | EC50 | - | 1.3 µM